Results published in ChEMBL document CHEMBL1148728, “Synthesis, biological activity, and crystal structure of potent nonnucleoside inhibitors of HIV-1 reverse transcriptase that retain activity against mutant forms of the enzyme” (J Med Chem, 2007).

Biological target: Human immunodeficiency virus type 1 reverse transcriptase (Human immunodeficiency virus 1) (UniProt Q72547)
Assay: Inhibition of HIV1 reverse transcriptase at 1 uM
Summary of the method: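 Wild-type HIV-1 RT enzyme screen with rC-dG template-primer. Percent inhibition is the mean of two experiments, each run in triplicate.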

SMILES: O=[N+]([O-])c1cccc2c1nc(-c1c(F)cccc1F)n2Cc1c(F)cccc1F
- inhibition: 51%
